According to patent US20080114054A1, “Compositions and methods for reducing antimicrobial resistance of microbes” (priority 2006, published 2008):
Where two headings read alike, the source gives them in different places.

Test system: Salmonella
Assay type: cell-based
Details: composition listed in Table 1 in presence of the antibiotic; for Colonies showing decreasing inhibition zone / Colonies showing increasing inhibition zones / Colonies with no change in inhibition zone / Colonies showing change in susceptibility: 30 colonies; for % colonies showing increase in inhibition zone: of 30 tested colonies

Compound: O=C(O)c1cn(C2CC2)c2cc(N3CCNCC3)c(F)cc2c1=O [CIP, Ciprofloxacin]
- Colonies showing decreasing inhibition zone (1 h): 0
- Colonies showing increasing inhibition zones (1 h): 29
- Colonies with no change in inhibition zone (1 h): 1
- % colonies showing increase in inhibition zone (1 h): 96.7%
- Colonies showing decreasing inhibition zone (2 h): 1
- Colonies showing increasing inhibition zones (2 h): 27
- Colonies with no change in inhibition zone (2 h): 2
- % colonies showing increase in inhibition zone (2 h): 90.0%

Compound: CO/N=C(\C(=O)N[C@@H]1C(=O)N2C(C(=O)O)=C(COC(C)=O)CS[C@H]12)c1csc(N)n1 [CTX, Cefotaxime]
- % of colonies showing change in susceptibility (1 h): 53.3%
- % of colonies showing change in susceptibility (2 h): 53.3%
- Colonies showing decreasing inhibition zone (2 h): 0
- Colonies showing increasing inhibition zones (2 h): 26
- Colonies with no change in inhibition zone (2 h): 4
- % colonies showing increase in inhibition zone (2 h): 86.7%

Compound: CC1COc2c(N3CCN(C)CC3)c(F)cc3c(=O)c(C(=O)O)cn1c23 (stereo not shown) [OFX, Ofloxacin]
- % of colonies showing change in susceptibility (1 h): 50.0%
- Colonies showing change in susceptibility (1 h): 15
- Colonies showing decreasing inhibition zone (1 h): 1
- Colonies with no change in inhibition zone (1 h): 0
- % colonies showing increase in inhibition zone (1 h): 96.7%
- % of colonies showing change in susceptibility (2 h): 46.7%
- Colonies showing change in susceptibility (2 h): 14
- Colonies showing decreasing inhibition zone (2 h): 1
- Colonies with no change in inhibition zone (2 h): 0
- % colonies showing increase in inhibition zone (2 h): 96.7%

Compound: Trimethoprim-Sulfamethoaxzole [SXT]
- % of colonies showing change in susceptibility (1 h): 40.0%
- Colonies showing change in susceptibility (1 h): 12
- Colonies showing decreasing inhibition zone (1 h): 1
- Colonies showing increasing inhibition zones (1 h): 24
- % colonies showing increase in inhibition zone (1 h): 80.0%
- % of colonies showing change in susceptibility (2 h): 40.0%
- Colonies showing change in susceptibility (2 h): 12
- Colonies showing decreasing inhibition zone (2 h): 2
- Colonies showing increasing inhibition zones (2 h): 23
- % colonies showing increase in inhibition zone (2 h): 76.7%
